Laboratory results published in ChEMBL document CHEMBL4706564 (Eur J Med Chem, 2020).

Experiments:
[1] = Selectivity index, ratio of CC50 for African green monkey Vero cells to IC50 for Zaire ebolavirus infected in African green monkey Vero cells
[2] = Selectivity index, ratio of CC50 for human HEK293T cells to IC50 for glycoprotein in VSV-G pseudotyped EBOV Mayinga infected in human HEK293T cells
[3] = Selectivity index, ratio of CC50 for African green monkey Vero cells to IC50 for MARV Popp infected in African green monkey Vero cells

CC1CCN(CCC(=O)O[C@@H]2C[C@@H]3CC[C@@]2(C)C3(C)C)CC1
Ratio CC50/IC50 [1]: 1.3
Ratio CC50/IC50 [2]: 956
Ratio CC50/IC50 [3]: 32

CCN1CCN(CCC(=O)O[C@@H]2C[C@@H]3CC[C@@]2(C)C3(C)C)CC1
Ratio CC50/IC50 [2]: 170
Ratio CC50/IC50 [3]: 1

CN1CCN(CCCC(=O)O[C@@H]2C[C@@H]3CC[C@@]2(C)C3(C)C)CC1
Ratio CC50/IC50 [2]: 160

CC1(C)[C@H]2CC[C@]1(C)[C@H](OC(=O)CCN1CCCCC1)C2.Cl
Ratio CC50/IC50 [1]: 31
Ratio CC50/IC50 [2]: 112
Ratio CC50/IC50 [3]: 15

CC1CCN(CCC(=O)O[C@@H]2C[C@@H]3CC[C@@]2(C)C3(C)C)CC1.Cl
Ratio CC50/IC50 [1]: 2.2
Ratio CC50/IC50 [2]: 171
Ratio CC50/IC50 [3]: 25

CC1CCN(CC(=O)N[C@@H]2C[C@H]3CC[C@]2(C)C3(C)C)CC1
Ratio CC50/IC50 [2]: 2.9

CC1(C)[C@@H]2CC[C@@]1(C)[C@H](NC(=O)CCN1CCOCC1)C2
Ratio CC50/IC50 [2]: 14

CC1CCN(CCCC(=O)O[C@@H]2C[C@@H]3CC[C@@]2(C)C3(C)C)CC1
Ratio CC50/IC50 [2]: 18

CC1(C)[C@H]2CC[C@]1(C)[C@H](OC(=O)CCN1CCCCC1)C2
Ratio CC50/IC50 [1]: 9
Ratio CC50/IC50 [2]: 170
Ratio CC50/IC50 [3]: 118
